PubChem BioAssay AID1259414 | Drosophila RNAi Screening Center | 2018
Test: 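Host factors increasing or decreasing Wolbachia levels in cultured fly cells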 (primary screen). Cells: Drosophila JW18 cells infected with Wolbachia. Reagents: long dsRNA against Drosophila genes, 0.25 µg dsRNA per well of a 384-well plate. Duration: 5 days. Treatment: cells persistently infected with Wolbachia before knock-down; no added drug. Measurement: 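Automated imaging of bacterial rRNA staining divided by host cell count, reported as plate-normalised robust z-score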. Scale: Wolbachia per cell robust z: higher = more Wolbachia per host cell than the plate typical. Call rule: 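Hit when robust z is 1.5 or more, or -1.5 or less, in at least two of three replicates; excludes dsRNAs with several or no targets, genes not expressed in JW18 and well A1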.
The deposit covers about 24,000 reagents; below is an unselected part of those that have a named target and a result. Over the whole deposit, about 1,210 (5%) are marked active. 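Inactive calls also include excluded dsRNAs with several or no targets, genes unexpressed in JW18, and well A1, regardless of score.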 A plus sign joins genes that one reagent is predicted to hit.

The first 4 records as a preview:
| gene | amplicon | Wolbachia per cell robust z, rep 1 | Wolbachia per cell robust z, rep 2 | Wolbachia per cell robust z, rep 3 | call |
| --- | --- | --- | --- | --- | --- |
| CG13074 | DRSC09957 | -1.21 | 0.368 | 0.281 | inactive |
| capt | DRSC00676 | -2.73 | -0.0632 | 0.0473 | inactive |
| capt | DRSC00806 | 1.21 | -0.859 | 0.788 | inactive |
| capt | DRSC27343 | -0.974 | -0.422 | -0.593 | inactive |

Results, repeating the preview:
| gene | amplicon | Wolbachia per cell robust z, rep 1 | Wolbachia per cell robust z, rep 2 | Wolbachia per cell robust z, rep 3 | call |
| --- | --- | --- | --- | --- | --- |
| CG13074 | DRSC09957 | -1.21 | 0.368 | 0.281 | inactive |
| capt | DRSC00676 | -2.73 | -0.0632 | 0.0473 | inactive |
| capt | DRSC00806 | 1.21 | -0.859 | 0.788 | inactive |
| capt | DRSC27343 | -0.974 | -0.422 | -0.593 | inactive |
| capt | DRSC28196 | 1.2 | 1.1 | 0.0812 | inactive |
| CG7322 | DRSC20036 | -0.669 | -0.43 | -1.09 | inactive |
| CG7322 | DRSC26735 | -2.35 | -1.06 | 0.0822 | inactive |
| CG13215 | DRSC06337 | -0.577 | 0.945 | 0.448 | inactive |
| cocoon | DRSC10916 | -2 | 0.445 | 0.739 | inactive |
| cocoon | DRSC28623 | -0.0792 | 1.43 | -0.836 | inactive |
| PGRP-SC2 | DRSC06481 | -1.38 | -0.445 | -1.03 | inactive |
| PGRP-SC2 | DRSC25449 | 1.29 | 0.315 | 1.16 | inactive |
| CG13123 | DRSC02219 | 0.747 | -0.463 | 0.224 | inactive |
| CG43331 | DRSC11671 | -1.95 | 0.857 | -0.258 | inactive |
| Gyf | DRSC17202 | -0.942 | -0.205 | -0.534 | inactive |
| Gyf | DRSC28907 | -1.96 | -1.09 | -0.398 | inactive |
| Gyf | DRSC41273 | -1.63 | -0.66 | 0.0961 | inactive |
| Rnb | DRSC16325 | 0.681 | 1.54 | 0.735 | inactive |
| Rnb | DRSC28764 | -1.12 | -0.601 | -0.0953 | inactive |
| aux | DRSC12161 | -2.55 | -2.04 | -0.809 | active |
| aux | DRSC28178 | -0.789 | -0.967 | -1.51 | inactive |
| CG34166 | DRSC02482 | -0.0676 | -0.658 | -0.879 | inactive |
| CG34166 | DRSC27934 | -0.146 | 1.54 | 0.68 | inactive |
| CG34166 | DRSC39101 | 0.0657 | -0.0666 | 0.529 | inactive |
| ens | DRSC08454 | 0.458 | -0.541 | -0.905 | inactive |
| ens | DRSC25507 | 1.67 | -0.841 | 0.546 | inactive |
| run | DRSC20584 | 1.91 | -1.55 | -4.7 | inactive |
| run | DRSC21515 | 0.0243 | -0.196 | -1.17 | inactive |
| run | DRSC27251 | -0.789 | -0.551 | -0.671 | inactive |
| run | DRSC40668 | 0.503 | 0.6 | 0.451 | inactive |
| cag | DRSC07587 | -1.03 | -5.92 | -2.95 | active |
| cag | DRSC29225 | -0.431 | 0.44 | 0.292 | inactive |
| hpRNA:CR33940 | DRSC39118 | -0.737 | 0.618 | 1.17 | inactive |
| CR32496 + CG6788 | DRSC22043 | 0.237 | -1.68 | 0.299 | inactive |
| CG34446 | DRSC24507 | -0.0422 | 0.0586 | -0.32 | inactive |
| sgll | DRSC15442 | 0.0556 | -0.986 | 0.496 | inactive |
| Shawl | DRSC02209 | -4.16 | -2.1 | -4.74 | inactive |
| Shawl | DRSC02748 | -1.13 | 0.33 | -1.82 | inactive |
| Shawl | DRSC24307 | 2.68 | 3.7 | 0.0466 | inactive |
| Vps2 | DRSC14886 | 2.67 | 4.05 | 4.47 | active |
| Vps2 | DRSC27194 | 1.13 | 0.758 | 1.5 | inactive |
| Lipt2 | DRSC12338 | -1.05 | -0.0293 | 0.602 | inactive |
| Lipt2 | DRSC22610 | 0.804 | 0.508 | 0.411 | inactive |
| Nelf-E | DRSC10567 | 0.675 | -0.602 | 0.44 | inactive |
| Uba4 | DRSC02194 | -2.45 | 0.551 | -0.068 | inactive |
| Uba4 | DRSC27964 | 0.0407 | -0.485 | 0.183 | inactive |
| Graf | DRSC20131 | -4.5 | 0.206 | 0.0424 | inactive |
| nop5 | DRSC03582 | 0.123 | -0.613 | 2.14 | inactive |
| CG32834 | DRSC21929 | -0.589 | -0.965 | -0.573 | inactive |
| CG32834 | DRSC28346 | 0.705 | 0.225 | 0.197 | inactive |
| CG33467 | DRSC05525 | -0.777 | 0.536 | -0.576 | inactive |
| CG33467 | DRSC22651 | 0.0877 | 0.551 | -0.606 | inactive |
| Nepl8 | DRSC02759 | -0.0356 | 1.64 | -5.8 | inactive |
| Syx13 | DRSC09836 | 0.642 | 0.423 | -0.00454 | inactive |
| blow | DRSC07586 | -0.77 | -0.271 | -3.21 | inactive |
| blow | DRSC27716 | -0.0744 | 0.428 | 0.642 | inactive |
| CG43127 | DRSC41347 | 0.508 | -0.0588 | 0.00618 | inactive |
| CG15023 | DRSC08477 | 0.183 | 0.287 | 0.707 | inactive |
| CG15023 | DRSC25462 | -0.0716 | -0.214 | 0.599 | inactive |
| Sws1 + Rad1 | DRSC00778 | 0.508 | -4.32 | 0.262 | inactive |
| CG13607 | DRSC14610 | 0.412 | -1.31 | -0.493 | inactive |
| CG13377 | DRSC18622 | -0.284 | -1.33 | -0.625 | inactive |
| CG15824 | DRSC00473 | -3.2 | 0.122 | -1.28 | inactive |
| CG15824 | DRSC27412 | 1.24 | 0.337 | -4.78 | inactive |
| Dad1 | DRSC02263 | 0.554 | -0.103 | -1.63 | inactive |
| CanB2 | DRSC07355 | -2.21 | 0.597 | 0.0355 | inactive |
| CanB2 | DRSC27440 | 0.213 | -0.574 | -0.687 | inactive |
| CanB2 | DRSC41557 | -0.489 | -1.85 | -0.744 | inactive |
